Experimental data from the supplement of paper PMC9931576.
Human monoclonal antibodies against the spike receptor-binding domain (heavy:light variable regions). IC50 against pseudoviruses bearing the spike of naturally observed variants; lower = stronger; >10 µg/ml means not reached at the top dose. No active / inactive call. The stated detection limit is 0.0005 µg/ml; values near or below 0.001 µg/ml lie at the floor of the assay.

B1: BD56-1727 (protein)
chain 1: QVTLRESGPALVRPTQTLTLTCTFSGFSLNTNGMSVSWIRQPPGKALEWLARIDWDGDKYYITSLKTRLTISKDTSKNQVVLTMTNMDPVDTATYYCARIREVRGGDYGMDVWGQGTTVAVSS
chain 2: QSVLTQPPSASGTPGQRVTISCSGSSPNIGRNTVNWYHHLPGTAPKLLIYSDNQRPSGVPVRFSGSKSGTSASLAISGLQSDDEAEYYCGTWDDSLNGWVFGGGTKLTVL
B2: BD56-1744 (protein)
chain 1: QVQLVQSGAEVKKPGSSVKVSCKASGGTFSSNTISWVRQAPGQGLEWMGRIIPILGIPDYAQKFQGRVTINADKSTSTAYMELSSLRSEDTAVYYCAKDTGYSGYLSAYYFEYWGQGTLVTVSS
chain 2: QSVLTQPPSVSGAPGQRVTISCTGSNSNIGAGYDVHWYQQLPGTAPNLLIYGNGNRPSGVPDRFSGSKSGTSASLAITGLQAEDEADYYCQSYDSSLSGSVFGGGTKLTVL
B3: COV2-2848 (protein)
chain 1: QVQLVESGGGVVQPGRSLRLSCAASGFTFSRYAMYWVRQAPGKGLEWVALISYDGRNEYYADSVKGRFTISRDNSKNTLYLQMNSLRAGDSAVYYCARDLAYHPYRDYGDDDYYYYYGMDVWGQGTTVTVSS
chain 2: SYELTQPPSVSVSPGQTARITCFGDALPKQYAYWYQQKPGQGPVLVIYKDSERPSGIPERFSGSTSGTTVTLTISGVQAEDEADYYCQSADSSGTYRVFGGGTKLTVL
B4: BD56-1751 (protein)
chain 1: QVQLVESGGGVVQPGRSLRLSCAASGFIFSSYAMHWVRQAPGKGLEWVAVISYDGSNKHYADVVKGRFTISRDKNKNTLYLEMNSLRAEDTAVYYCARVSSNYYDSSGYSPYDYYGMDVWGQGTTVTVSS
chain 2: EIVLTQSPGTLSLSPGERATLSCRASQSFSSDYLAWYQQKPGQAPRLLIYGASSRATGIPDRFSGSGSGTDFTLTISRLEPEDFAVYYCQQYGSPWAFGQGTKVEIK
B5: BD56-1735 (protein)
chain 1: QVQLVESGGGVVQPGRSLRLSCGASGFSFSDYAMHWVRQAPGKGLEWVAVTSYDGSIKQYGDSVRGRFTVSRDNSKNTVFLQMNSLRDEDTAVYYCAREGHGSGSYDQRVAPGDYFDSWGQGTLVTVSS
chain 2: SYVLTQPPSVSVAPGRTARITCGGNDIGSKSVHWYQQKPGQAPVLVIYYDHDRPSGIPERFSGSNSGNTATLTISRVEAGDEADYYCQVWDGSSVFYVFGSGTKVTVL
B6: COV2-2734 (protein)
chain 1: QVQLQESGPGLVKPSETLSLTCTVSGGSVSSGSYYWSWIRQPPGKGLECIGYIYYSGSSNYNPSLKSRVTISVDTSKNQFSLKMSSVTAADTAVYYCAGSPVPPTIVGASYWGQGTLVTVSS
chain 2: NFMLTQPHSVSESPGKTVTFSCTGSSGSIASNYVQWYQQRPGSAPTTVIYEDNQRPSGVPDRFSGSIDSSSNSASLTISGLKTEDEADYYCQSYDGINRWLVFGGGTKLTVL
B7: BD56-1742 (protein)
chain 1: QVQLVQSGAEVKKPGASVKISCKASGYTFTTNFLHWVRQAPGQGLEWMGIINPSGFSSTYAQKFQGRVTMTGDTSTRTVYMELSSLISEDTAIYYCARGHTVAVAGLLDYWGQGTLVTVSS
chain 2: QTVVTQEPSLTVSPGGTVTLTCASSTGAVTSTYFPNWFQQKPGQAPRALIYSTTNKPSWTPARVSGSLLGGKAALTLSGVQAEDEADYYCLLYDGDTWVFGGGTKLTVL
B8: BD56-1734 (protein)
chain 1: EVQLVESGGGLVQPGGSLRLSCAASGFTFSSYDMHWVRQATGKGLEWVSTIGTSGDTYYPGSVKGRFTISRENAKNSLSLQMNSLRAGDTAVYYCARIKYDSRGFHWYLDLWGRGTLVTVSS
chain 2: DIQMTQSPSSLSASVGDRVTITCRASQSISGYLNWYQQKPGKAPKLLIYAASSLQSGVPSRFSGSGSGTDFTLTITNLQPEDFATYYCQQSYTNPLYTFGQGTKLEIK
B9: BD56-1749 (protein)
chain 1: QVHLVQSGAEVKKPGSSVKVSCKASGDTFSTYTLSWVRQAPGQGLEWMGRIIPSLGIANYAQIFKGRVTITADTSTTTAYMELSSLRSEDTAVYYCARDSPLHLLSFYYYAMDVWGQGTTVTVSS
chain 2: QSVLTQPSSVSGTPGQRVTISCSGSSSNIGRNTVNWYQQLPGTAPKLLISNNSQRPSGVPDRFSGSKSGTSASLAISGLLSEDEAAYYCSAWDDSLDGVVFGGGTKLTLL
B10: BD56-1747 (protein)
chain 1: EVKLVESGGGLVQPGRSLRLSCAVFGFTFDDYAMHWVRQAPGKGLEWVSGINWNGGDTGYVDSVKGRFTISRDNSKKSLYLQMNSLRAEDTALYYCAKDSRGGYDFWNGPLDVWGQGTTVTVSS
chain 2: EIVLTQSPGTLSLSPGERATLSCRASQIFDGGSLAWYQQKPGQAPRLLIYGTSSRATGIPDRFSGSGSGTDFTLTISRVEPEDFAVYYCQQYGSSPLTFGPGTKVDIK
B11: BD56-1746 (protein)
chain 1: EVQLVESGGGLEQPGGSLRLSCAASGFTFSNHDMHWVRLSTVKGLEWVSAIGTASDTYYADSVKGRFTISRENAKNSLYLQMNSLRAGDTAVYYCARGADILTGYNNWYFDLWGRGTLVTVSS
chain 2: DIQMTQSPSSLSASVGDRVTITCRAGQRIGTYLHWYQQKPGKAPKLLIYAATSLQSGVPSRFSGRGSGTDFTLTISSLQPEDFATYYCQQSYSTPPATFGPGTKVDIK
B12: BD56-1748 (protein)
chain 1: QVQLVESGGGVVQPGRSLRLSCAASGFTFSNYDMHWVRQAPGKGLEWVAVISSDGSGKFYADSVKGRFTISRDNSKTTVFLQMSSLRSDDTAVYYCAKDVGSAAAVDYFYHWGQGTLVTVSS
chain 2: DIQMTQSPSSLSASVGDRVTITCRASQNIFTYLSWYQQKPGKAPQLLIYAASSLRSGVPSKFSGSGSGTDFTLTISSLQPEDSATYYCQQSYNTPPWTFGQGTKVEIK

Assays:
Assay in all cases: pseudovirus neutralization IC50; higher = weaker neutralization
[1] = biological target: SARS-CoV-2 Omicron BA.1 spike pseudovirus
Description: (§1)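 Single-round VSV luciferase pseudovirus mixed with antibody dilutions for 1 h and put on Huh-7 cells for about a day; IC50 from the dose curve.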

[2] = biological target: SARS-CoV-2 Omicron BA.2 spike pseudovirus
Description: as §1

[3] = biological target: SARS-CoV-2 Omicron BA.2.75 spike pseudovirus
Description: as §1

[4] = biological target: SARS-CoV-2 Omicron BA.5 spike pseudovirus
Description: as §1

[5] = biological target: SARS-CoV-2 Omicron BQ.1.1 spike pseudovirus
Description: as §1

[6] = biological target: SARS-CoV-2 Omicron XBB spike pseudovirus
Description: as §1

[7] = biological target: SARS-CoV-2 early D614G spike pseudovirus
Description: as §1

Binder	pseudovirus neutralization IC50 [1] [µg/mL]	pseudovirus neutralization IC50 [2] [µg/mL]	pseudovirus neutralization IC50 [3] [µg/mL]	pseudovirus neutralization IC50 [4] [µg/mL]	pseudovirus neutralization IC50 [5] [µg/mL]	pseudovirus neutralization IC50 [6] [µg/mL]	pseudovirus neutralization IC50 [7] [µg/mL]
B1	> 10	0.00138	> 10	0.00279	> 10	> 10	0.0189
B2	0.0936	0.0515	0.185	2.5	> 10	> 10	0.19
B3	> 10	> 10	> 10	> 10	> 10	> 10	> 10
B4	0.194	0.188	0.3	> 10	> 10	> 10	0.346
B5	> 10	> 10	> 10	> 10	> 10	> 10	> 10
B6	> 10	> 10	> 10	> 10	> 10	> 10	> 10
B7	0.0391	0.0107	0.0777	> 10	> 10	> 10	0.00219
B8	> 10	> 10	> 10	> 10	> 10	> 10	> 10
B9	0.00187	0.00163	0.00265	> 10	> 10	> 10	0.00533
B10	0.322	0.177	0.248	1.06	2.31	3.71	0.185
B11	> 10	> 10	> 10	> 10	> 10	> 10	> 10
B12	> 10	> 10	> 10	> 10	> 10	> 10	1.19
